The results in this text go back to article PMC12186487.

The exact form of at least one protein or probe is not confirmed. Tags and fusion partners may be left off the protein sequences shown.

Data set [1] addresses T1, CarR (UniProt Q8RFU8).
T1 sequence (looked up, limits assumed): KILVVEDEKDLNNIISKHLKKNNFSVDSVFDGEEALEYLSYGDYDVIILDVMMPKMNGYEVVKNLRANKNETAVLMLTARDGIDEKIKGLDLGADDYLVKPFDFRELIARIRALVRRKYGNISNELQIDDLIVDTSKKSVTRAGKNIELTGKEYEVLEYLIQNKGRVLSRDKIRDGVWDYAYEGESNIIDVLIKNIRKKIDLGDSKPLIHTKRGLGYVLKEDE
Description: EMSA. As to conditions: poly(dI-dC), EMSA: 1x LightShift binding buffer, 50 ng/uL poly(dI-dC), 2.5% glycerol, 5 mM MgCl2, 20 uL, 20 min, room temperature, 25 ng probe, recombinant protein, protein details: His6, label: Cy5 5' (forward primer), probe letters rebuilt from the primers and the genome. On the technique in general: Mobility shift assays separate free from complexed probe on a gel.

For data set [2], the target named is T1, CarR. Description: DNase I footprinting. As to conditions: 7 uM CarR, 17 bp motif protected; footprinting: 200 ng probe, 30 min, 25 C; pH not stated; recombinant protein; protein details: His6; label: 6-FAM 5' (forward primer); probe letters rebuilt from the primers and the genome.
The target of data set [3] is T1, CarR. In words: competition with a labelled probe. As to conditions: EMSA: 1x LightShift binding buffer, 50 ng/uL poly(dI-dC), 2.5% glycerol, 5 mM MgCl2, 20 uL, 20 min, room temperature, 25 ng probe, recombinant protein, protein details: His6.
Setting [4] is: competed by 100-fold unlabeled probe.

For “CAGTTTTGATGTTAGAAAACTGTACTTTTTTTTATTAAAAAAATAATTTATAAAATATATATAAGAAAATTTTTTTATTATATTTTTAGATGTAACTATGAAATTATAATATAAAAAATTCTTTACTAAAAAACTAAAAAATAAATTTTAAAATAAATTTTAAATGTTCTATAAAAAAACAAAAAAAACTTATTTCTAAAAAATAATACGATTATACTAAAAATATATTTGACATTATAAATTTTTTAGATATAATGAAAATAAGAGGTAAGGGTATG (double strand) [kal (ldp) promoter probe]”, the binding result in data set [1] (setting [4]) is recorded as “binds”. Still for that read-out and setting: for “GTTTCTTTACTCATTCTAAATTCCTCCTTAAAAATTAATAAACAAAAAATAATCAATTTTGTTCTATTTATATTTTATATTTTATCATATTTTTTTTATATGTCAATGTAAAAATTTTTTTATTTTTTCAATACAATATGTAGTATAATCGAAAAAAATATAATAAATTATTTTTTTATATTAATATTTTTTTTATTATTAATTATATAAATTATTAATGTTTTTTTATTCATTTTATTTC (double strand) [gluD (gdhA) promoter probe]” the value was “binds”. Regarding “CGAGAGACAAAAGCATTGTAATATAGCATATAAAAATGAATATCAGATGAATATTTTTGATGACATAGTATAAAAAAAATGATATAATGAAAACAGTTATATAAATTATATATATATACAATAAATAATATAAAAAAGGGGAGGTTGAATTTATGAAAAAAGTTATTTTAACATTATTTGTTTTATTATCTATTGGAATATTTGCAAATGATGAG (double strand) [pradA 215 bp EMSA probe]”, in data set [1], the binding result was “binds”. Regarding “TATAAGGATTGACTTTTGTAAGAAACAGGAGTTAGTTCTTTTTAATTTATTAAAAAAATACATTATAAATAAATATAATATCTATAAATAGATTATTTTAATCTAAAAATATACTAATAATTTTATATTTCGAGAGACAAAAGCATTGTAATATAGCATATAAAAATGAATATCAGATGAATATTTTTGATGACATAGTATAAAAAAAATGATATAATGAAAACAGTTATATAAATTATATATATATACAATAAATAATATAAAAAAGGGGAGGTTGAATTTATGAAAAAAGTTATTTTAACATTATTTGTTTTATTATCTATTGGAATATTTGCAAATGATGAG (double strand) [pradA footprinting probe]”, the binding result in data set [2] is “binds”. Consider “CACAGTGTACTATGACAGTTTTTAGTATAAATAATTTATTTATAAATCGTTTTATGTTAATATTATAATATAAAAATATCAAATATACTAGGAGGTAAATTATGGAAATGAAAAAATCTGGTTTAGG (double strand) [megL promoter probe]”, for which the binding result in data set [1] (setting [4]) was “binds”. For “CCATCCATTAATGTTTCCAGAGCTCCAAAATGCTCTCTCAACATTAATGGATGTCGCAGTAGCCTTATTAAAAATTATTATTTATTATAATCAATATATACAAAAGGAAGAGATATGTTATTTGAAGACAG (double strand) [pfruR unlabeled competitor]”, in data set [3] (100-fold excess unlabeled vs Cy5-pfruR, probe letters rebuilt from the primers and the genome), the binding result is “binds”.

With “TCAGATGAATATTTTTGATGACATAGTATAAAAAAAATGATATAATGAAAACAGTTATATAAATTATATATATATACAATAAATAATA (double strand) [pradA BS P1]”, the binding result in data set [3] (100-fold excess unlabeled vs Cy5-pradA) is given as “binds”. For the sequence “CCATCCATTAATGTTTCCAGAGCTCCAAAATGCTCTCTCAACATTAATGGATGTCGCAGTAGCCTTATTAAAAATTATTATTTATTATAATCAATATATACAAAAGGAAGAGATATGTTATTTGAAGACAG (double strand) [pfruR 131 bp probe]”, the binding result in data set [1] is recorded as “binds”.
